Taken from: PubChem BioAssay AID504761 (Drosophila RNAi Screening Center, 2011)
Purpose: 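Genome-wide fly cell screen for genes dengue virus requires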 (primary screen). System: D.Mel-2 cells from Drosophila. Knock-down reagent: long dsRNA against Drosophila genes. Treatment: infection with dengue virus type 2; dose and infection time not stated. Measurement: 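Cells stained for dengue envelope protein and imaged; percent of infected cells per well on duplicate plates, ranked by infection, with stained nuclei counted for cell number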. Direction: infection score: higher = more virus-infected cells. Rule for the call: 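Very low infection ranking in both replicate wells (chance probability at most 0.065), then a retest showing infection dropped 1.5-fold or more at p below 0.05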. Calls: active = confirmed: knock-down lowers infection; inactive = not picked or not confirmed.
In all, the deposit lists about 22,000 reagents; shown is a random part of those with a known target gene and a result. Of all reagents, 116 (0.52%) were called active. 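Calls depend on retest data that are not deposited; infection was ranked per plate without normalising between plates; the unit of the infection score is not given.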 Names joined by + are all predicted targets of the reagent. Further read-outs or replicates are left out here. Not stated in the record: the amount of reagent, the time to read-out.

Against Rpp21 (Ribonuclease P/MRP subunit p21) [SID104201935], the entry reads infection score, replicate 1 = 3.01; inactive.
Rpp21 (Ribonuclease P/MRP subunit p21) [SID104208411] showed infection score, replicate 1 = 10.5; inactive.
After knock-down of Pur-alpha (Purine-rich binding protein-alpha) [SID104196958], the screen gave infection score, replicate 1 = 4.28; inactive.
Fsn (F-box synaptic protein) [SID104186667] scored infection score, replicate 1 = 5.7; inactive.
Knock-down of Fsn (F-box synaptic protein) [SID104206248] gave: infection score, replicate 1 = 3.89; inactive.
For msl-2 (male-specific lethal 2) [SID104180621] the deposit lists infection score, replicate 1 = 1.49; inactive.
Depletion of msl-2 (male-specific lethal 2) [SID104206752] came out at: infection score, replicate 1 = 5.26; inactive.
Nadk2 (NAD kinase 2, mitochondrial) [SID104186864] gave infection score, replicate 1 = 7.88; inactive.
CG14174 [SID104189967] scored infection score, replicate 1 = 1.84; inactive.
Knock-down of CG43367 + CG32252 (retired record) [SID104201389] resulted in: infection score, replicate 1 = 13.3; inactive.
After knock-down of SelR (Selenoprotein R) [SID104195863], the screen gave infection score, replicate 1 = 2.09; inactive.
Knock-down of Fit2 (Fermitin 2) [SID104190700] came out at: infection score, replicate 1 = 4.63; inactive.
CG2003 [SID104195203] gave infection score, replicate 1 = 10.1; inactive.
Depletion of lncRNA:CR32661 (long non-coding RNA:CR32661) [SID104199586] resulted in: infection score, replicate 1 = 12.2; inactive.
For lncRNA:CR32661 (long non-coding RNA:CR32661) [SID104206610], the entry reads infection score, replicate 1 = 21.2; inactive.
aay (astray) [SID104191112] gave infection score, replicate 1 = 6.21; inactive.
For shtd (shattered) [SID104199958], the values are infection score, replicate 1 = 3.69; inactive.
Knock-down of shtd (shattered) [SID104206304] came out at: infection score, replicate 1 = 5.24; inactive.
Sf3b5 (Splicing factor 3b subunit 5) [SID104194252] scored infection score, replicate 1 = 13.1; inactive.
Silencing of CG32718 [SID104197330] came out at: infection score, replicate 1 = 8.41; inactive.
mldr (mulder) [SID104197892] gave infection score, replicate 1 = 10; inactive.
For mldr (mulder) [SID104206534] the deposit lists infection score, replicate 1 = 7.44; inactive.

As entered above:
Result of Sf3b5 (Splicing factor 3b subunit 5) [SID104194252] in “infection score, replicate 1”: 13.1
Value for Rpp21 (Ribonuclease P/MRP subunit p21) [SID104208411] in “activity call”: inactive
Fit2 (Fermitin 2) [SID104190700], activity call → inactive
